Values from PubChem BioAssay AID1224833 (University of Georgia, 2016)
Test: 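Human genes whose knock-down alters rotavirus replication in monkey cells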 (primary screen). Cells: monkey MA104 kidney cells. Reagents: siRNA pool against human genes, 50 nM. Duration: 48 h knock-down before infection; read 24 h after infection. Challenge: infection with rotavirus strain RV3 two days after transfection; infectious dose for this stage not given. Measurement: 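Rotavirus antigen per well by fluorescent immunoassay, normalised to non-targeting control wells on each plate and given as a standard z-score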. Reading the numbers: z-score vs non-targeting control: higher = more rotavirus replication than with non-targeting control. Hit rule: In these data the active calls have z-score vs non-targeting control at about -1 or lower, or at about 1 or higher. Meaning of the calls: active = z-score beyond 1 either way; inactive = z-score within 1 of zero.
Shown is one part, drawn at random, of about 12,000 deposited reagents. About 5,600 of them (46%) count as active. 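Active calls cover z-scores past 1 in both directions, so they include lowered as well as raised rotavirus replication.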

Target gene,z-score vs non-targeting control,Outcome
RBM24,0.459,inactive
BCL7C,-0.559,inactive
ADISSP,1.21,active
MYH7B,-2.09,active
PRDM12,2.13,active
HDAC7,1.67,active
TRO,-2.12,active
CALML6,0.839,inactive
LAPTM4B,-0.189,inactive
ZNF274,2.66,active
PPT2,-1.69,active
SLC36A1,1,active
TCHP,-1.51,active
PPCDC,-0.77,inactive
NDUFA9,3.22,active
DNAJC12,-0.571,inactive
NDUFC1,-1.67,active
FUT3,0.978,inactive
TRMT2B,-0.581,inactive
THAP5,-0.242,inactive
CMA1,1.24,active
ANXA1,-1.81,active
ZDHHC22,0.979,inactive
LSM11,-0.371,inactive
NKAPD1,0.956,inactive
HSD11B1,-0.758,inactive
KRTAP13-2,0.659,inactive
BEX2,0.977,inactive
MMP7,1.24,active
NUP210,1.19,active
PPP6R3,0.256,inactive
AFF3,-0.429,inactive
SDF4,0.149,inactive
PRPH,-0.202,inactive
PBDC1,2.25,active
GAL3ST1,-0.77,inactive
TMEM41A,-0.815,inactive
COMMD7,-0.608,inactive
LYPD6,1.25,active
WNT16,1.23,active
SH2D2A,-2.19,active
RBBP8,-0.214,inactive
GPIHBP1,-2.86,active
MAP1LC3A,-0.0788,inactive
TJP1,-1.77,active
MRAP,0.183,inactive
RP1,-1.95,active
PHOSPHO2,-1.24,active
NOL4,0.477,inactive
OR10H3,-0.586,inactive
PCYT2,-1.28,active
SH3PXD2B,1.23,active
SREK1,0.692,inactive
ZCCHC12,-1.59,active
AP1M2,0.0425,inactive
ZNF367,2.28,active
IL19,0.831,inactive
BCAM,0.673,inactive
SERPINA12,-0.0554,inactive
KLK2,0.511,inactive
SRSF11,1.32,active
FEM1B,-1.52,active
CERKL,-1.15,active
NRIP2,0.63,inactive
DCT,-0.889,inactive
SACK1G,0.617,inactive
RBM25,-0.557,inactive
CYP4F12,0.545,inactive
C1orf216,-0.548,inactive
DEF8,2.29,active
TMSB15A,-0.829,inactive
RCBTB2,2.24,active
RIPPLY3,-0.223,inactive
GLMN,-0.191,inactive
LRRC31,0.676,inactive
UGT1A10,-2.12,active
LMAN1L,-0.129,inactive
TSLP,2.48,active
OR5P2,-1.63,active
PEX5,0.941,inactive
GRM1,-0.866,inactive
DNAAF11,-1.79,active
H1-0,-1.88,active
EPC2,-0.944,inactive
OR5M8,-0.395,inactive
USP6NL,-0.0897,inactive
KRIT1,0.648,inactive
SPG7,1.09,active
CCL3,0.54,inactive
RPL34,1.18,active
AGAP3,-0.3,inactive
KLHL38,-1.01,active
DDIT4L,1.2,active
RMP24,-0.214,inactive
MIA3,-1.34,active
ANKRD46,-1.15,active
ERICH1,1.23,active
RIPOR2,0.186,inactive
MYO6,-0.745,inactive
PPP1R16A,-0.993,inactive
NME1-NME2,1.05,active
IKZF4,-0.497,inactive
ATG2B,-0.335,inactive
FAM222B,-0.767,inactive
ESPL1,2.04,active
VAX1,0.204,inactive
POPDC1,0.712,inactive
GSTA1,-0.907,inactive
TMEM91,0.527,inactive
PNMT,-1.16,active
